Experimental data from BindingDB's records for 12904075.

By UniProt entry, the sequences of proteins in these tests, tags left out. Where a name states a change or a piece, a line headed by the entry shows the natural chain unless it says otherwise.
UniProt Q14761: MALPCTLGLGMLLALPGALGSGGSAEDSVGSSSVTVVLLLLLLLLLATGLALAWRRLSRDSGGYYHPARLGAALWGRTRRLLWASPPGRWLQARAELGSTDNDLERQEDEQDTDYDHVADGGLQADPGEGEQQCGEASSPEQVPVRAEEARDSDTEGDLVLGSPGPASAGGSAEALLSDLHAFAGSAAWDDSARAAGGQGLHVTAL

Molecular target: Protein tyrosine phosphatase receptor type C-associated protein (Homo sapiens, UniProt Q14761)
Assay: ASSAY_NAME: ChEMBL_210866 (CHEMBL812679) DESCRIPTION: Inhibitory activity against Tyrosine phosphatase from Yersinia (Yop protein)

O=C(O)CCCCCP(O)(O)=S
Ki: 29 mM

O=C(O)CCCCCP(=O)(O)O
Ki: 42 mM

O=C(O)c1cccc2ccc(CP(O)(O)=S)cc12
Ki: 0.2 mM
